Patent US11268099
The exact form of at least one protein or probe is not confirmed.

Test system: 2G12 (anti-HIV-1 gp120 carbohydrate-binding monoclonal antibody)
Assay: competition with a labelled probe
Details: all T in random region are EdU click-glycosylated with Man9 (3 sites); binding competed by 200 nM gp120 JR-FL; purified recombinant protein; protein details: Polymun Scientific; label: 5'-32P; single-stranded DNA

Sequence: CGGGTACGGGAGACCCACGGTGCAACCTACGGATAAAGCACACAGGAGACGACAAG [Clone 1 glycoDNA]
- binding result: binds
